The assay relates to anaerobic bacteria. Nature of the assay: Antibacterial spectrum, anaerobic bacteria. The following applies: incl. clindamycin-resistant C. difficile and clindamycin or ampicillin-resistant B. fragilis. Type of assay: cell-based.

The structures appear in SMILES notation.

On to `COc1cccc2c1N[C@H](O)[C@@H]1CC(/C=C/C(=O)N(C)C)=CN1C2=O` [BMY-28121 A], for which the “inhibition of anaerobic bacteria” value is “inhibited all of the gram-positive and negative organisms”.
